Several values for one entry are separate records, joined by “and”; a condition that tells them apart may be missing. Equal entries are not always repeated.
Test: EPR spectra of flavonoid radicals (hyperfine coupling constants, linewidth, center field)
Conditions: for G value: flavonoid radical, simulated EPR spectrum

With `O=c1cc(-c2ccc(O)c(O)c2-c2c(O)cc3oc(-c4ccc(O)c(O)c4)cc(=O)c3c2O)oc2cc(O)cc(O)c12` [Compound 2a, 6-(6-(5,7-dihydroxy-4-oxo-4H-chromen-2-yl)-2,3-dihydroxyphenyl)-2-(3,4-dihydroxyphenyl)-5,7-dihydroxy-4H-chromen-4-one] the “center field (CF)” value (pH 11.5) was 328.348 mT, the “linewidth (LW)” value (pH 11.5) was 0.02 mT and the G value (pH 11.5, listed as Dicranolomin) was 2.0002 and 2.

With `O=c1cc(-c2ccc(O)c(O)c2)oc2cc(O)ccc12` [7,3′,4′-trihydroxyflavone] the “center field (CF)” value (pH 11) was 328.348 mT, the “linewidth (LW)” value (pH 11) was 0.02 mT and the G value (pH 11) was 2.0002.

With `O=c1cc(-c2ccc(O)c(O)c2)oc2ccccc12` [3′,4′-dihydroxyflavone] the “center field (CF)” value (pH 10) was 328.348 mT, the “linewidth (LW)” value (pH 10) was 0.02 mT and the G value (pH 10) was 2.0002.

Reference: patent publication US20240122894A1, “METHODS TO SYNTHESIZE FLAVONOID DIMERS AND OLIGOMERS AND THE USE THEREOF” (National University of Singapore, priority 2020, published 2024)
